Read-outs that look alike come from different tables or passages of the source.
System: nontumorigenic neonatal foreskin fibroblast (NFF) cell line
[1] = NFF fibroblasts, single concentration 5 µg/mL

Substance	NFF_Activity (NFF_NS1 screen at 5 µg/mL)	NFF_Activity [1]	other results
Elaiophylin	A (active (A) compounds having >25% inhibitory activity)		
Enniatin A	I (otherwise these were reported as inactive (I))		
Enniatin A1	I (otherwise these were reported as inactive (I))		
Mithramycin A		I (otherwise these were reported as inactive (I))	
Oligomycin A			NFF_Activity: I (key: active (A) compounds having >25% inhibitory activity; otherwise these were reported as inactive (I))
Penitrem A		I (otherwise these were reported as inactive (I))	
Pyripyropene A		I (otherwise these were reported as inactive (I))	
